# Measurements as given in patent US11801255B2, “Lipid disulfide prodrugs and uses related thereto” (priority 2017, dated 2023).
# System: HIV-1
# Set-up: TI90, HIV-1: unit not given beside the values
# Conditions: for therapeutic index (TI) at the EC50 / TI50, HIV-1, text: PBMCs; for TI90, HIV-1: at the EC90, data not shown
# Method: Compounds synthesized were evaluated against HIV-infected PBMCs and antiviral activity was assessed by measuring reverse transcriptase in cell supernatants. Compounds 11a-e, 12a-e, and 13 were assayed against HBV and qPCR was used to quantify viral DNA following incubation in HepG2.2.15 cells after 6 days.
Compound,"therapeutic index (TI) at the EC50 / TI50, HIV-1, text","TI90, HIV-1"
CCCCCCCCCCSSCCOP(=O)(O)CO[C@H](C)Cn1cnc2c(N)ncnc21.N [Compound 11a],590,
CCCCCCCCCCCCCCSSCCOP(=O)(O)CO[C@H](C)Cn1cnc2c(N)ncnc21.N [Compound 11c],"~30,000","11,000"
"CCCCCCCCCCCCCCCCSSCCOP(=O)(O)COC(C)Cn1cnc2c(N)ncnc21 (stereo not drawn) [Compound 11d, 2-(hexadecyldisulfanyl)ethyl hydrogen (((1-(6-amino-9H-purin-9-yl)propan-2-yl)oxy)methyl)phosphonate]","exceeds 20,000","11,000"
"tenofovir disoproxil fumarate [TDF, reference compound]",,"1,300"
